# Measured values as given in a flash point compilation (Sun et al. 2020).
row,Structure (SMILES),flash point [°C]
1,CC(=O)CCl [1-chloropropan-2-one],40.00
2,C1CN1 [aziridine],-11.00
3,CC(C)OP(OC(C)C)OC(C)C [tripropan-2-yl phosphite],74.00
4,ClCCOP(OCCCl)OCCCl [tris(2-chloroethyl) phosphite],138.00
